Laboratory results taken from patent US20180003711A1, “DIRECTED EVOLUTION OF MEMBRANE PROTEINS IN EUKARYOTIC CELLS WITH A CELL WALL” (Universität Zürich, priority 2014, published 2018).

The molecules below were run on S. cerevisiae strain BY4741 (assay: Radioligand binding assay (RLBA) on whole yeast cells: average total functional receptors per cell). Conditions: non-adapted yeast.
Format: cell-based, Saccharomyces cerevisiae

| Molecule | functional expression level in yeast (in words) |
| --- | --- |
| KOR1: wild-type human kappa-type opioid receptor [reference compound] | low expression levels |
| NK1R: wild-type human NK-1 receptor (tachykinin receptor 1, substance-P receptor) (protein, UniProt P25103 1-407, looked up) Substance-P receptor: MDNVLPVDSDLSPNISTNTSEPNQFVQPAWQIVLWAAAYTVIVVTSVVGNVVVMWIILAHKRMRTVTNYFLVNLAFAEASMAAFNTVVNFTYAVHNEWYYGLFYCKFHNFFPIAAVFASIYSMTAVAFDRYMAIIHPLQPRLSATATKVVICVIWVLALLLAFPQGYYSTTETMPSRVVCMIEWPEHPNKIYEKVYHICVTVLIYFLPLLVIGYAYTVVGITLWASEIPGDSSDRYHEQVSAKRKVVKMMIVVVCTFAICWLPFHIFFLLPYINPDLYLKKFIQQVYLAIMWLAMSSTMYNPIIYCCLNDRFRLGFKHAFRCCPFISAGDYEGLEMKSTRYLQTQGSVYKVSRLETTISTVVGAHEEEPEDGPKATPSSLDLTSNCSSRSDSKTMTESFSFSSNVLS | no functional expression at all is detected |
| NTR1: wild-type rat neurotensin receptor 1, N-terminally truncated from amino acids 1-42 (protein, UniProt P20789 43-424, looked up, fragment) TSESDTAGPNSDLDVNTDIYSKVLVTAIYLALFVVGTVGNSVTAFTLARKKSLQSLQSTVHYHLGSLALSDLLILLLAMPVELYNFIWVHHPWAFGDAGCRGYYFLRDACTYATALNVASLSVERYLAICHPFKAKTLMSRSRTKKFISAIWLASALLAIPMLFTMGLQNRSGDGTHPGGLVCTPIVDTATVKVVIQVNTFMSFLFPMLVISILNTVIANKLTVMVHQAAEQGRVCTVGTHNGLEHSTFNMTIEPGRVQALRHGVLVLRAVVIAFVVCWLPYHVRRLMFCYISDEQWTTFLFDFYHYFYMLTNALFYVSSAINPILYNLVSANFRQVFLSTLACLCPGWRHRRKKRPTFSRKPNSMSSNHAFSTSATRETLY | low expression levels |
